{
  "source": "patent US20040121316A1",
  "about": "(priority 2002, published 2004)",
  "key": {"WT HIV protease": {"target": "T1, WT HIV protease (Human immunodeficiency virus type 1 group M subtype B, UniProt P04585)", "T1 construct": "synthetic hexapeptide substrate cleavage by HIV-1 protease", "assay_type": "biochemical, HIV-1"}, "WT HIV-1": {"tested_on": "WT HIV-1", "conditions": "read-out: Cell-based assay (MT-4) EC50/nM WT"}, "[1]": {"target": "T2, recombinant HIV-1 protease (Human immunodeficiency virus type 1 group M subtype B, UniProt P04585)", "T2 construct": "Enzyme: recombinant HIV-1 protease expressed in E.Coli; purchased Bachem California, Inc. H-9040; host or cells: E. coli", "assay_type": "biochemical"}},
  "data": [
    {"substance": "DMP-850 [reference compound]", "values": [
      {"measurement": "IC50", "setting": "WT HIV protease", "value": 3, "unit": "nM"},
      {"measurement": "EC50", "setting": "WT HIV-1", "value": 165, "unit": "nM"},
      {"measurement": "Ki", "setting": "[1]", "value": 0.033, "unit": "nM"}
    ]}
  ]
}
